According to PMC9673142, “1,3-Diarylpyrazolyl-acylsulfonamides Target HadAB/BC Complex in Mycobacterium tuberculosis” (ACS Infectious Diseases, 2022):

Columns and labels:
[1] = tested on: compound 1-resistant Mtb mutants (SRM59, Rv0637/hadC:K157R); type: cell-based, Mycobacterium tuberculosis
Mtb/pNIP40b-hadABC = test: microbe, parasite or virus in culture; type: cell-based; settings: Mycobacterium tuberculosis, read-out: MIC Mtb/pNIP40b-hadABC

SMILES	MIC against resistant colonies (seven out of 10 selected colonies) [1]	MIC (Mtb/pNIP40b-hadABC)
CS(=O)(=O)NC(=O)CCc1cn(-c2ccc(Br)cc2)nc1-c1ccncc1 [Compound 1]	50 to 100 µM	–
CS(=O)(=O)NC(=O)NCc1cc(-c2ccc(Br)cc2)oc1-c1ccncc1 [Compound 14]	–	15 µM (≈ 6.75 µg/mL)

Values after ≈ are worked out from the molar mass of the structure shown.
